Anti-infective test results gathered from many reports (values: NIAID ChemDB through PubChem).

Shared fields: tests in culture; agent: HIV-1; cell line: MT-4; measure: EC50

ECn is the concentration giving n% inhibition of infection, replication or growth.

CCc1c(O)cccc1C(=O)N[C@@H](Cc1ccccc1)[C@H](O)C(=O)N1CSC(C)(C)[C@H]1C(=O)NC(C)(C)C ; strain: IIIB ; result: 0.54 µM
CC(C)(C)OC(=O)N[C@@H](Cc1ccccc1)[C@@H](O)C[C@@H](Cc1ccc(OCP(=O)(OCc2ccccc2)OCc2ccccc2)cc1)C(=O)N[C@H]1c2ccccc2C[C@H]1O ; strain: IIIB ; method: cytopathic effect / MTT ; result: 0.01 µM
Cc1cn([C@H]2C[C@H](N=[N+]=[N-])[C@@H](COP(=O)(O)OCc3ccccc3)O2)c(=O)[nH]c1=O ; method: cytopathic effect ; result: 0.014 µM
NC(=S)N/N=C(\c1ccccn1)C12CC3CC(CC(C3)C1)C2 ; strain: IIIB ; result: 214 µM
CCc1c(O)cccc1C(=O)N[C@@H](Cc1ccccc1)[C@H](O)C(=O)N1CSC[C@H]1C(=O)NC(C)(C)C ; strain: IIIB ; result: 1.46 µM
CCOC(=O)COc1ccc(C[C@H](C[C@H](O)[C@H](Cc2ccccc2)NC(=O)OC(C)(C)C)C(=O)N[C@H]2c3ccccc3C[C@H]2O)cc1 ; strain: IIIB ; method: cytopathic effect / MTT ; result: 0.16 µM
O=S1(=O)NC(Cc2ccc(Cl)cc2Cl)=CC(=NC2CCN(Cc3ccccc3)CC2)N1 ; strain: RES056 ; changes: RT-K103N Y181C ; method: MTT ; result: >110.8 µM
CC(C)(C)NC(=O)[C@@H]1C[C@@H]2CCCC[C@@H]2CN1C[C@@H](O)[C@H](Cc1ccccc1)NC(=O)[C@H](CC(N)=O)NC(=O)c1ccc2ccccc2n1 ; strain: NL4-3 ; changes: PR-L10R M46I L63P V82T ; method: p24 ; result: <0.025 µM
CCCCCCCCCCCCCCCCCCOC1OC(COS(=O)(=O)O)C(OC2OC(COS(=O)(=O)O)C(OC3OC(COS(=O)(=O)O)C(OC4OC(COS(=O)(=O)O)C(OC5OC(COS(=O)(=O)O)C(OC6OC(COS(=O)(=O)O)C(OS(=O)(=O)O)C(OS(=O)(=O)O)C6O)C(OS(=O)(=O)O)C5O)C(O)C4OS(=O)(=O)O)C(O)C3OS(=O)(=O)O)C(OS(=O)(=O)O)C2O)C(OS(=O)(=O)O)C1O ; strain: IIIB ; method: cytopathic effect / MTT ; result: 0.4 µg/mL
Cc1cc(C)c(Nc2nc(Nc3ccc(C#N)cc3)ncc2C)c(C)c1 ; strain: LAI ; method: cytopathic effect / MTT ; result: 0.017 µM
O=S1(=O)NC(Cc2cccc3ccccc23)=CC(=NC2CCN(Cc3ccc(Br)cc3)CC2)N1 ; strain: IIIB ; method: MTT ; result: 25.58 µM
CCCCCCCCCCCCOC1OC(COS(=O)(=O)O)C(OS(=O)(=O)O)C(OC2OC(COS(=O)(=O)O)C(OS(=O)(=O)O)C(OC3OC(COS(=O)(=O)O)C(OS(=O)(=O)O)C(OC4OC(COS(=O)(=O)O)C(OS(=O)(=O)O)C(OC5OC(COS(=O)(=O)O)C(OS(=O)(=O)O)C(OS(=O)(=O)O)C5OS(=O)(=O)O)C4OS(=O)(=O)O)C3OS(=O)(=O)O)C2OS(=O)(=O)O)C1OS(=O)(=O)O ; strain: IIIB ; method: cytopathic effect / MTT ; result: 0.7 µg/mL
CC(C)CN([C@H](CO)CCCCNC(=O)[C@@H](NC(=O)c1ccc(N)nc1)C(c1ccccc1)c1ccccc1)S(=O)(=O)c1ccc(N)cc1 ; strain: NL4-3 ; method: cytopathic effect / MTT ; result: 0.084 µM
Nc1ccn([C@H]2CC[C@@H](CO)O2)c(=O)n1 ; strain: IIIB ; method: cytopathic effect / MTT ; result: 0.16 µg/mL
Cc1c(O)cccc1C(=O)N[C@@H](Cc1ccccc1)[C@H](O)C(=O)N1CSC(C)(C)[C@H]1C(=O)NC(C)(C)C ; strain: IIIB ; result: 0.15 µM
Nc1nc(=O)n([C@@H]2CO[C@H](CO)S2)cc1F ; strain: HXB2D(RT-M184I) ; changes: RT-M184I ; method: RT activity ; result: 27 µM
Cc1cn([C@H]2C[C@H](N=[N+]=[N-])[C@@H](CO)O2)c(=O)[nH]c1=O ; strain: HXB2-D65(RT-K65R) ; changes: RT-K65R ; method: p24 ; result: 0.01 µM
N#CCN1C(=O)N(Cc2cccc(F)c2)S(=O)(=O)c2cscc21 ; strain: IIIB ; method: cytopathic effect / MTT ; result: 0.09 µM
Cc1ccccc1CNC(=O)[C@@H]1CSCN1C(=O)[C@@H](O)[C@H](Cc1ccccc1)NC(=O)c1cccc(O)c1C ; strain: IIIB ; result: 5.35 µM
Cc1cn([C@H]2C[C@H](N=[N+]=[N-])[C@@H](CO)O2)c(=O)[nH]c1=O ; strain: IIIB/LAI ; method: cytopathic effect / trypan blue ; result: 0.003 µM
COC(=O)N[C@H](C(=O)N[C@@H](Cc1ccccc1)[C@@H](O)CN(Cc1ccc(-c2ccccn2)cc1)NC(=O)[C@@H](NC(=O)OC)C(C)(C)C)C(C)(C)C ; strain: NL4-3 ; changes: L10F M46I I54V V82A ; method: p24 / luminescence ; result: 0.041 µM
CCc1cn([C@@H]2O[C@H](CO[Si](C)(C)C(C)(C)C)C3(OS(=O)(=O)C=C3N)[C@H]2O[Si](C)(C)C(C)(C)C)c(=O)[nH]c1=O ; strain: IIIB ; method: cytopathic effect / trypan blue ; result: 0.0066 µM
O=S(=O)(O)OCC1OC(OC2C(COS(=O)(=O)O)OC(O)C(O)C2OS(=O)(=O)O)C(OS(=O)(=O)O)C(O)C1OC1OC(COS(=O)(=O)O)C(OC2OC(COS(=O)(=O)O)C(OC3OC(COS(=O)(=O)O)C(OC4OC(COS(=O)(=O)O)C(OS(=O)(=O)O)C(OS(=O)(=O)O)C4O)C(OS(=O)(=O)O)C3O)C(O)C2OS(=O)(=O)O)C(OS(=O)(=O)O)C1O ; strain: IIIB ; method: cytopathic effect / MTT ; result: 207 µg/mL
O=C1N(Cc2ccc(CO)cc2)[C@H](Cc2ccccc2)[C@H](O)[C@@H](O)[C@@H](Cc2ccccc2)N1Cc1ccc(CO)cc1 ; strain: NL4-3 ; changes: PR-I84V ; method: p24 ; result: <3 µM
Cc1c(Cc2c(F)cccc2F)nc(SC2CCCC2)[nH]c1=O ; strain: IIIB ; method: p24 ; result: <0.075 µM
Cc1cn([C@H]2C[C@H](N=[N+]=[N-])[C@@H](CO)O2)c(=O)[nH]c1=O ; strain: ROD ; method: MTT ; result: >7.48 µM
Cc1cn([C@H]2C=C[C@@H](COP(=O)(O)OCc3ccccc3)O2)c(=O)[nH]c1=O ; result: 0.034 µM
CCCCCCCCCCCCOC1OC(COS(=O)(=O)O)C(OC2OC(COS(=O)(=O)O)C(OC3OC(COS(=O)(=O)O)C(OC4OC(COS(=O)(=O)O)C(OC5OC(COS(=O)(=O)O)C(OC6OC(COS(=O)(=O)O)C(OS(=O)(=O)O)C(OS(=O)(=O)O)C6O)C(OS(=O)(=O)O)C5OS(=O)(=O)O)C(O)C4OS(=O)(=O)O)C(OS(=O)(=O)O)C3O)C(OS(=O)(=O)O)C2O)C(O)C1OS(=O)(=O)O ; strain: IIIB ; method: cytopathic effect / MTT ; result: 1 µg/mL
Cn1ncc2c1S(=O)(=O)N(Cc1cccc(Cl)c1)C(=O)N2CC#N ; strain: IIIB ; method: cytopathic effect / MTT ; result: 45.6 µM
CC(C)(C)NC(=O)[C@@H]1C[C@@H]2CCCC[C@@H]2CN1C[C@@H](O)[C@H](Cc1ccccc1)NC(=O)[C@H](CC(N)=O)NC(=O)c1ccc2ccccc2n1 ; strain: HXB2 WT ; result: 0.014 µM
O=S1(=O)NC(Cc2cccc3ccccc23)=CC(=NC2CCN(Cc3ccccc3)CC2)N1 ; strain: RES056 ; changes: RT-K103N Y181C ; method: MTT ; result: 31.7 µM
NC(=O)c1ncn([C@@H]2O[C@H](CO)[C@@H](O)[C@H]2O)n1 ; strain: IIIB ; method: cytopathic effect ; result: >20 µM
O=S1(=O)NC(Cc2ccc(Cl)cc2Cl)=CC(=NC2CCN(Cc3c(Cl)cccc3Cl)CC2)N1 ; strain: IIIB ; method: MTT ; result: >48.2 µM
CC(C)(C)OC(=O)N[C@@H](Cc1ccccc1)[C@@H](O)C[C@@H](Cc1ccc(OCc2nn[nH]n2)cc1)C(=O)N[C@H]1c2ccccc2C[C@H]1O ; strain: IIIB ; method: cytopathic effect / MTT ; result: >10 µM
CN=C(NC#N)NCCSCc1nc[nH]c1C ; method: p24 ; result: 0.0268 µM
Cn1ncc2c1S(=O)(=O)N(Cc1cccc(Cl)c1)C(=O)N2Cc1ccc(F)cc1 ; strain: IIIB ; method: cytopathic effect / MTT ; result: >208.9 µM
COc1cc(C(=O)N[C@H](C(=O)NCCCC[C@@H](CO)N(CC(C)C)S(=O)(=O)c2ccc(N)cc2)C(c2ccccc2)c2ccccc2)ccc1O ; strain: 4596 PR-M46I V82T I84V L10R L63P ; changes: PR-M46I V82T I84V L10R L63P ; method: cytopathic effect / MTT ; result: <0.023 µM
CC(C)CN(C[C@@H](O)[C@H](Cc1ccc(F)cc1)NC(=O)O[C@H]1CCO[C@H]2OCC[C@H]21)S(=O)(=O)c1ccc2nc(NC(C)C)sc2c1 ; strain: NL4-3 ; method: p24 / luminescence ; result: 0.0018 µM
Nc1ncnc2c1ncn2[C@H]1CC[C@@H](CO)O1 ; strain: IIIB ; method: syncytia ; result: 5.27 µM
Cc1cn([C@H]2C=C[C@@H](CO)O2)c(=O)[nH]c1=O ; result: 0.33 µM
O=c1[nH]cnc2c1ncn2[C@H]1CC[C@@H](CO)O1 ; strain: HXB2-D184 (RT-M184V) ; changes: RT-M184V ; method: RT activity ; result: 39.8 µM
Cc1cccc(C)c1OCC(=O)N[C@@H](Cc1ccccc1)[C@@H](O)C[C@H](Cc1ccccc1)NC(=O)[C@H](C(C)C)N1CCCNC1=O ; strain: HXB2 WT ; result: 0.0115 µM
Cn1ncc2c1S(=O)(=O)N(Cc1cccc(Cl)c1)C(=O)N2 ; strain: IIIB ; method: cytopathic effect / MTT ; result: >223.9 µM
Cc1c(O)cccc1C(=O)N[C@@H](CSc1ccccc1)[C@H](O)CN1C[C@H]2CCCC[C@H]2C[C@H]1C(=O)NC(C)(C)C ; strain: HXB2 WT ; result: 0.026 µM
N#Cc1ccc(CN2CCC(N=C3C=C(Cc4ccc(Cl)cc4Cl)NS(=O)(=O)N3)CC2)cc1 ; strain: RES056 ; changes: RT-K103N Y181C ; method: MTT ; result: >101 µM
CC1(C)C2CC[C@@]3(C)C4CC[C@@]5(C)CC[C@](C)(C(=O)O)C[C@H]5C4=CC(=O)C3[C@@]2(C)CC[C@@H]1O[C@@H]1O[C@H](C(=O)O)[C@@H](O[C@@H]2O[C@H](C(=O)O)[C@@H](O)[C@H](O)[C@H]2O)[C@H](O)[C@H]1O ; strain: EVK ; method: p24 / ELISA / antigen ; result: 125 µg/mL
Cc1ccnc2c1NC(=O)c1cccnc1N2C1CC1 ; strain: HXB2D ; method: RT activity ; result: 0.024 µM
Cc1cn([C@H]2C[C@H](N=[N+]=[N-])[C@@H](CO)O2)c(=O)[nH]c1=O ; strain: IIIB ; method: cytopathic effect / MTT ; result: 0.01 µM
Cn1ncc2c1S(=O)(=O)N(Cc1cccc(Cl)c1)C(=O)N2Cc1ccccc1Br ; strain: IIIB ; method: cytopathic effect / MTT ; result: >252.3 µM
Cc1c(O)cccc1C(=O)N[C@@H](Cc1ccccc1)[C@H](O)C(=O)N1CO[C@H](C)[C@H]1C(=O)NC(C)(C)C ; strain: IIIB ; result: 1.4 µM
O=c1[nH]cnc2c1ncn2[C@H]1CC[C@@H](CO)O1 ; strain: IIIB WT ; method: cytopathic effect / MTT ; result: 1.9 µM
COc1ccc(CN2CCC(N=C3C=C(Cc4cccc5ccccc45)NS(=O)(=O)N3)CC2)cc1 ; strain: RES056 ; changes: RT-K103N Y181C ; method: MTT ; result: >119 µM
O=c1[nH]cnc2c1ncn2[C@H]1CC[C@@H](CO)O1 ; strain: IIIB ; method: syncytia ; result: 2.7 µM
Fc1cccc(F)c1[C@@H]1SCc2nc3ccccc3n21 ; strain: MN ; method: cytopathic effect / MTT ; result: 0.3 µg/mL
O=c1cc(Cc2c(F)cccc2F)nc(SC2CCCC2)[nH]1 ; strain: IIIB ; method: p24 ; result: <0.15 µM
CC(C)Nc1cccnc1N1CCN(C(=O)c2cc3cc(NS(C)(=O)=O)ccc3[nH]2)CC1 ; strain: HxB2D(RT-D67G) ; changes: RT-D67G ; method: RT activity ; result: 0.003 µM
O=c1[nH]cnc2c1ncn2[C@H]1CC[C@@H](CO)O1 ; strain: IIIB ; result: 4.95 µg/mL
N#Cc1cccc(CN2CCC(N=C3C=C(Cc4cccc5ccccc45)NS(=O)(=O)N3)CC2)c1 ; strain: RES056 ; changes: RT-K103N Y181C ; method: MTT ; result: >113 µM
CC(C)(C)NC(=O)[C@@H]1C[C@@H]2CCCC[C@@H]2CN1C[C@@H](O)[C@H](Cc1ccccc1)NC(=O)[C@H](CC(N)=O)NC(=O)c1ccc2ccccc2n1 ; strain: NL4-3.C11 (PR L10F M46I I84V T91S) ; changes: PR-L10F M46I I84V T91S ; method: p24 ; result: 0.002 µM
COc1ccc(S(=O)(=O)N(CC(C)C)C[C@@H](O)[C@H](Cc2ccc(OC)c(Cl)c2)NC(=O)O[C@H]2CO[C@H]3OCC[C@H]32)cc1 ; strain: NL4-3 ; changes: L23I E34Q K43I M46I I50L G51A L63P A71V V82A T91A ; method: p24 / luminescence ; result: 0.0023 µM

Lines come from different laboratories, so protocols vary.